Measurements taken from article PMC6974467, “egc Superantigens Impair Monocytes/Macrophages Inducing Cell Death and Inefficient Activation” (2019).

Target: Recombinant Human Glycoprotein 130 Fc Chimera (human) (UniProt P40189)

staphylococcal enterotoxin M (SEM)
Kd: 5 µM | koff: 0.0099 s⁻¹ | kon: 1990 M⁻¹ s⁻¹
